B1: human anti-M2 monoclonal antibody C40G1 (antibody, V domains shown)
VH: QLQLQESGPGLVKPSETLSLTCTVSGGSISSSFYYCGWIRQPPGKGLEWIGSIYYRGSTYYNPSLKSRVTISVDTSKNQFSLKLSSVTAADTAVYYCARRVTMVRGVKGDYFDYWGQGTLVTVSS
VL: DIQMTQSPSSLSASVGDRVTITCRASQGISSWLAWYQQKPEKVPKSLIYAASSLQSGVPSRFSGSGSGTDFTLTISSLQPEDFATYYCQQYNYYPLTFGGGTKVEIKR
B2: human anti-M2 monoclonal antibody L66 (antibody, V domains shown)
VH: EVQLVESGGGVVRPGGSLRLSCAASGFTFDDYGMSWVRQAPGKGLEWVSGINWNGGSTGYADSVKGRFTISRDNAKNSLYLQMNSLRAEDTALYYCARDRVTMVRGVIMDYYGMDVWGQGTTVTVSS
VL: QTVVTQEPSLTVSPRGTVTLTCSSSTGAVTSGYYPGWFQLKPGQAPMSLIYSARKKHSWTPARFSGSLLGGKAALTLSGVQPEDEAEYYCLLYYGGAYVFGTGTKVTVLG
B3: human anti-M2 monoclonal antibody N547 (antibody, V domains shown)
VH: not shown
VL: QSVLTQPPSMSAAPGQKVTISCSGSSSNIGNNYISWYQQLPGTAPKVLIYDNNKRPSGIPDRFSGSKSGTSATLGITGLQTGDEADYYCGSWDSSLSAGVFGTGTKVTVLG
B4: human anti-M2 monoclonal antibody no. Z3G1 (recombinant IgG1 type Z3, CHO; ATCC PTA-5967) (antibody, V domains shown)
VH: QVQLVQSGAEVKKPGASVKVSCKASGYTFTSYGISWVRQAPGQGLEWMGWISAYNGNTNYAQKLQGRVTMTTDTSTSTAYMELRSLRSDDTAVYYCARAAAGGYFQHWGQGTLVTVSS
VL: QSVLTQPPSASGTPGQRVTISCSGSNSNIGSKTVNWYQQLPGTAPKLLISSNNQRPSGVPDRFSGSKSGTSASLAISGLQSEDEADYYCAAWDDSLNGVVFGGGTKLTVLG

Key:
[1] = target: M2 protein expressed on A/PR/8/34 infected MDCK cells (influenza A virus A/PR/8/34, UniProt P06821 1-97); experiment: cell-based or functional assay
M2K peptide = M2K peptide (influenza A virus)
[2] = target: T1, M2 protein expressed on A/HK/1/68 infected MDCK cells (influenza A virus A/HK/1/68); experiment: cell-based ELISA, half-saturating antibody concentration
T1 construct: whole, on cells

M2P peptide = M2P peptide (influenza A virus); experiment: peptide ELISA, grade relative to wild-type M2

Binder | ADCC: lysis of A/PR/8/34 infected MDCK cells, antibody 5 ug/mL, […] cells [1] | binding result (M2K peptide) | Kd [2] | binding result (M2P peptide)
B1 | ~50% | – | – | –
B2 | ~50% | – | – | –
B3 | ~50% | – | – | –
B4 | ~50% | binds | 0.488 nM | binds

Reference: US20090196872A1 (KIRIN BEER, published 2009)
